For this test, the target named is T1, LtpM (Legionella pneumophila, UniProt A0A3A6VV34).
T1 construct: gene D1H98_02725

Protein sequences, listed by entry. Tags and fused reporters are not part of them. Residues count along the entry.
UniProt A0A3A6VV34, 1-639: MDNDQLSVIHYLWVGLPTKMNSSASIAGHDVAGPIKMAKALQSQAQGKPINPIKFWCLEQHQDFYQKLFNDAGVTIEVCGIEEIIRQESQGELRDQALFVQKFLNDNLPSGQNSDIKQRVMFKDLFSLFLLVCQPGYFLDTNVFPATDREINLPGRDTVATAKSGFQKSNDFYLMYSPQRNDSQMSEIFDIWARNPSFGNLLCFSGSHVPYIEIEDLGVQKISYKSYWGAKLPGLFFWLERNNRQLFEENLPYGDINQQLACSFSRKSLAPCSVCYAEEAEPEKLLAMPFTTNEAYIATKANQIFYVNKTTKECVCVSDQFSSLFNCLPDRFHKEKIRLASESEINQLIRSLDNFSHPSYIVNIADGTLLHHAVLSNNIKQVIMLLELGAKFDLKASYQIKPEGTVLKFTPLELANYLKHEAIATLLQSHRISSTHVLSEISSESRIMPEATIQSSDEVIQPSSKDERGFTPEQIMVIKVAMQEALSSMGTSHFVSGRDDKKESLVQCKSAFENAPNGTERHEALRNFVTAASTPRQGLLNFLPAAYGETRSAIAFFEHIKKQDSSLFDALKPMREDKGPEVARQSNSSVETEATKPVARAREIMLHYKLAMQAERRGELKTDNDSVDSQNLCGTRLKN

biotin-PI3P returned a Kd of 591 ± 203 nM.

(Values after article PMC6393602 (The Journal of Biological Chemistry, 2018).)
